We go through four molecules from patent publication US20240182531A1, “KV1.3 Blockers” (priority 2021, published 2024).

Experiment in all cases: cell-based or functional assay
Assay [1] deals with T1, human Kv1.1 potassium ion channel (human), Q09470.
T1 chain: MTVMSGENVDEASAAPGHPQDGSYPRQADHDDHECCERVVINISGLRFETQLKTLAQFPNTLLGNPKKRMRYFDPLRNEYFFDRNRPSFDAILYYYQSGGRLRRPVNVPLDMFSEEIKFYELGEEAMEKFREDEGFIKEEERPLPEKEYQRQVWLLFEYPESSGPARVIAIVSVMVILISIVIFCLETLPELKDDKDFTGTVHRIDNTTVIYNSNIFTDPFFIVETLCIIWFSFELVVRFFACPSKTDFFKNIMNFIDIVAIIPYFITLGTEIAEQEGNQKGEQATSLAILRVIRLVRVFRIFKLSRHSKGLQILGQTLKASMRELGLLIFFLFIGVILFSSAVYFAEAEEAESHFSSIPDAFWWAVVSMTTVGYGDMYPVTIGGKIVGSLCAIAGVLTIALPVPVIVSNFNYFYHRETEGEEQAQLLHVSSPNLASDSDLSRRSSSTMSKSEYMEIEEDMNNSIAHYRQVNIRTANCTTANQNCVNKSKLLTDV

Assay [2] concerns the target T2, human Kv1.2 potassium ion channel (human), P16389.
T2 chain: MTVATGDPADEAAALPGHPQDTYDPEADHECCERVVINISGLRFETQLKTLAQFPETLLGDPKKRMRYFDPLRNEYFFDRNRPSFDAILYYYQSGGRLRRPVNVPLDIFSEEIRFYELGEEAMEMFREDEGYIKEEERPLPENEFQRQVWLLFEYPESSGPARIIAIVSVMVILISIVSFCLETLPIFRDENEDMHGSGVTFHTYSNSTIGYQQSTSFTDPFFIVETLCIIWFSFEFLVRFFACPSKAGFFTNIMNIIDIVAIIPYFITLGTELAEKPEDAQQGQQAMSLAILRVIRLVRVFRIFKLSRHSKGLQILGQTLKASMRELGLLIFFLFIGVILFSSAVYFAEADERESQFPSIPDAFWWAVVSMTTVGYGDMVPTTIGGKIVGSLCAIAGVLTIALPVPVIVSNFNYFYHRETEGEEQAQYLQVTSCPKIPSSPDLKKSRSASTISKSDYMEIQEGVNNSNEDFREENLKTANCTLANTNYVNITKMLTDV

Assay [3] concerns the target human Kv1.3 (potassium voltage-gated channel subfamily A member 3) (human), P22001.
Assay [4] addresses T3, human Kv1.6 potassium ion channel (human), P17658.
T3 chain: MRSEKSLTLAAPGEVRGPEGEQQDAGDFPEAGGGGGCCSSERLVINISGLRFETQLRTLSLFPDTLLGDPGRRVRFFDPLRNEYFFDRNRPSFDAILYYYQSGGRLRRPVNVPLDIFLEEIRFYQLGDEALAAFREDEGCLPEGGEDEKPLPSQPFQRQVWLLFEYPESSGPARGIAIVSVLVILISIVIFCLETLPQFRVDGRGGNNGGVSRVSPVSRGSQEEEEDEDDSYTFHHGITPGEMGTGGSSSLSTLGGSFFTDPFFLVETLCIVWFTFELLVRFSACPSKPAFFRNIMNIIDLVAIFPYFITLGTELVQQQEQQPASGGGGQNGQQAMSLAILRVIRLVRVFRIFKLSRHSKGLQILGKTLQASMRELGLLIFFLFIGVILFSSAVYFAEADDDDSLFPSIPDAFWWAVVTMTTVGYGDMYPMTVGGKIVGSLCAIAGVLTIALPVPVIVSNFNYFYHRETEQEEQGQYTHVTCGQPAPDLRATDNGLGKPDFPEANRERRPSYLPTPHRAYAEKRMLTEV

In assay [1], NMDMRCSASVECKQKCLKAIGSIFGKCMNKKCKCYPRRRTA (modifications not checked) [Cpd No. 28] gave a Selectivity Kv1.1/Kv1.3 of 4280. In assay [2], this molecule gave a Potency IC50 (nM) Kv1.2 of 28 nM and a Selectivity Kv1.2/Kv1.3 of 191. In assay [3], this molecule yielded a Potency IC50 (nM) Kv1.3 of 0.15 nM and an anti-CD3 PBMC/IL-2 IC50 of 0.06 nM. In addition, in assay [4], the Selectivity Kv1.6/Kv1.3 is 1470.

In assay [2], QMDMRCSASVECKQKCLKAIGSIFGKCMNKKCKCYPR (modifications not checked) [Cpd No. 15] returned a Selectivity Kv1.2/Kv1.3 of 1360. In assay [3], this molecule displayed a Potency IC50 (nM) Kv1.3 of 0.38 nM and an anti-CD3 PBMC/IL-2 IC50 of 0.09 nM. For the same molecule, in assay [4], the Potency IC50 (nM) Kv1.6 was above 3000 nM and the Selectivity Kv1.6/Kv1.3 was above 7900.

Turning to NMDMRCSASVECKVKCLKAIGSIFGKCMNKKCKCYPR (modifications not checked) [Cpd No. 22], in assay [2], the Potency IC50 (nM) Kv1.2 worked out at 66 nM and the Selectivity Kv1.2/Kv1.3 was 159. In assay [3], this molecule yielded a Potency IC50 (nM) Kv1.3 of 0.42 nM and an anti-CD3 PBMC/IL-2 IC50 of 0.4 nM. In addition, in assay [4], the Selectivity Kv1.6/Kv1.3 was 2180.

On to QMDMRCSASVECKQKCLKAIGRGFGKCMNKKCKCYPR (modifications not checked) [Cpd No. 16], for which, in assay [1], the Potency IC50 (nM) Kv1.1 is above 3000 nM and the Selectivity Kv1.1/Kv1.3 is above 2000. In assay [2], the Potency IC50 (nM) Kv1.2 is 97 nM and the Selectivity Kv1.2/Kv1.3 was 65. This molecule also had a Potency IC50 (nM) Kv1.3 in assay [3] of 1.5 nM. Also, in assay [4], the Selectivity Kv1.6/Kv1.3 was found to be 1200.
